Literature values in PMC9054008 (Science Advances, 2022).

Chains of the proteins cited; added tags and fusions are not shown. Lines headed by an entry give the natural chain unless they say otherwise; changes in a name come on top.
UniProt P14434, whole entry, looked up: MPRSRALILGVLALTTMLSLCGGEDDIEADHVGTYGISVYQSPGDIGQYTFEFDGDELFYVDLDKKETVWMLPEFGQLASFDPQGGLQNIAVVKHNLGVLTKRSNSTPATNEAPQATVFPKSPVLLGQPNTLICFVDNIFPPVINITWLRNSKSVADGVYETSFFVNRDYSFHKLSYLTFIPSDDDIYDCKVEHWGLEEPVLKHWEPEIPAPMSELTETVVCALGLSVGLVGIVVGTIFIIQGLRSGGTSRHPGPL
UniProt P14483: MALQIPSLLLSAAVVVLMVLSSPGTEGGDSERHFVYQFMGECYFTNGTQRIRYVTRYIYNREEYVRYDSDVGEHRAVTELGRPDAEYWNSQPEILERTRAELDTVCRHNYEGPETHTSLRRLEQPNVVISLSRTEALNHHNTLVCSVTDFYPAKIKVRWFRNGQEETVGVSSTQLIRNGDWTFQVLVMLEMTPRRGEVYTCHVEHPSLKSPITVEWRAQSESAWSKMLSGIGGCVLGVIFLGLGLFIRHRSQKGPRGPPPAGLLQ

Biological target: I-Ab (Mus musculus, UniProt P14434+P14483)
Details: cited from earlier work

In the case of FSLSAAVKAGASLID, the IC50 is given as 638 nM.
